A mixed list of measured activities; the numbers were collected in NIAID ChemDB.

Common to all: toxicity to cultured cells; cell line: MRC-5; endpoint: CC50

Conditions beyond the fields shown may differ between rows.

compound,value
Nc1nc2c(ncn2CCC(CO)CO)c(=O)[nH]1,>300 µM
CC#Cc1cn([C@@H]2O[C@H](CO)[C@@H](O)[C@@H]2O)c(=O)[nH]c1=O,>500 µM
Nc1nc(N)c2ncn(OCCCCP(=O)(O)O)c2n1,>100 µg/mL
O=C(CCCCCCC(=O)Nc1cc(S(=O)(=O)O)cc2cc(S(=O)(=O)O)cc(O)c12)Nc1cc(S(=O)(=O)O)cc2cc(S(=O)(=O)O)cc(O)c12,>500 µM
Cc1ccc(CN2c3ccccc3C(=O)N(Cc3ccccc3)S2(=O)=O)cc1,>63 µM
O=c1[nH]c(=S)n([C@@H]2O[C@H](CO)[C@@H](O)[C@@H]2O)cc1/C=C/c1ccccc1,>258.7 µM
Nc1ccn(C[C@H]2COP(=O)(O)CO2)c(=O)n1,>3000 µM
CCCN1C(=O)c2ccccc2N(Cc2ccc(Cl)cc2)S1(=O)=O,13.7 µM
CCCCCCCCCCCCCCCC(=O)Nc1cc(S(=O)(=O)O)cc2cc(S(=O)(=O)O)cc(O)c12,98 µM
CCOC1=NS(=O)(=O)N(Cc2ccc(Cl)cc2)c2ccccc21,7.1 µM
Nc1nc2c(ncn2COC(COP(=O)(O)O)COP(=O)(O)O)c(=O)[nH]1,>1000 µM
CCN1C(=O)c2ccccc2N(Cc2ccc(Cl)cc2)S1(=O)=O,7.1 µM
N#Cc1ccc(CN2c3ccccc3C(OCc3ccccc3)=NS2(=O)=O)cc1,>62 µM
Nc1ncnc2c1ncn2OCC(CO)CCP(=O)(O)O,>100 µg/mL
CCCCN1C(=O)c2ccccc2N(CCc2ccccc2)S1(=O)=O,57.4 µM
CCc1cn([C@@H]2O[C@H](CO)[C@@H](O)[C@@H]2O)c(=S)[nH]c1=O,>213 µM
CCCCN1C(=O)c2ccccc2N(CCCc2ccccc2)S1(=O)=O,59.4 µM
C=Cc1cn([C@@H]2O[C@H](CO)[C@@H](O)[C@@H]2O)c(=S)[nH]c1=O,>213 µM
CCCOC1=NS(=O)(=O)N(Cc2ccc(Cl)cc2)c2ccccc21,6.8 µM
O=C1c2ccccc2N(Cc2ccc(Cl)c(Cl)c2)S(=O)(=O)N1Cc1ccc(Cl)c(Cl)c1,>48 µM
Nc1nc2c(ncn2COCCO)c(=O)[nH]1,100 µg/mL
Nc1nc2c(ncn2COC(CO)CCP(=O)(O)O)c(=O)[nH]1,>1000 µM
O=C1c2ccccc2N(Cc2ccccc2Cl)S(=O)(=O)N1Cc1ccccc1Cl,>56 µM
CC(C)CN1C(=O)c2ccccc2N(Cc2ccc(Cl)c(Cl)c2)S1(=O)=O,60.4 µM
O=C(O)/C=C/c1cn([C@@H]2O[C@H](CO)[C@@H](O)[C@@H]2O)c(=S)[nH]c1=O,>238.4 µM
Nc1nc2c(ccn2[C@@H]2C[C@H](CO)[C@H](O)[C@@H]2O)c(=O)[nH]1,>100 µg/mL
Nc1nc2c(ncn2COC(CO)CO)c(=O)[nH]1,>300 µM
O=S(=O)(O)c1cc(O)c2c(NS(=O)(=O)c3ccc(-c4ccc(S(=O)(=O)Nc5cc(S(=O)(=O)O)cc6cc(S(=O)(=O)O)cc(O)c56)cc4)cc3)cc(S(=O)(=O)O)cc2c1,>500 µM
Cc1ccc(CN2c3ccccc3C(OCc3ccccc3)=NS2(=O)=O)cc1,>63 µM

Repeating the final 4 entries:

{"compound": "Nc1nc2c(ccn2[C@@H]2C[C@H](CO)[C@H](O)[C@@H]2O)c(=O)[nH]1", "value": ">100 µg/mL"}
{"compound": "Nc1nc2c(ncn2COC(CO)CO)c(=O)[nH]1", "value": ">300 µM"}
{"compound": "O=S(=O)(O)c1cc(O)c2c(NS(=O)(=O)c3ccc(-c4ccc(S(=O)(=O)Nc5cc(S(=O)(=O)O)cc6cc(S(=O)(=O)O)cc(O)c56)cc4)cc3)cc(S(=O)(=O)O)cc2c1", "value": ">500 µM"}
{"compound": "Cc1ccc(CN2c3ccccc3C(OCc3ccccc3)=NS2(=O)=O)cc1", "value": ">63 µM"}

CCn is the concentration with n% toxicity to the cells.